Results of unrelated studies side by side (data: NIAID ChemDB).

All rows: cytotoxicity tests; endpoint: CC50

Blank or dashed fields: not listed here. CCn is the concentration with n% toxicity to the cells. Neighbouring rows are from separate reports.

SMILES	read by	cells	value
COc1ccc2c(O[C@@H]3C[C@H]4C(=O)N[C@]5(C(=O)NS(=O)(=O)C6CC6)C[C@H]5/C=C\CCCCN(C)C(=O)[C@@H]4C3)cc(-c3nc(C(C)C)cs3)nc2c1C		Huh7-Luc	>42 µM
COc1ccc(Cc2cc(C3CCN(C(=O)c4ccc5occc5c4)CC3)nc(N)n2)cc1		Jurkat cells (PMA-stimulated)	>5 µM
CC(C)N(Cc1cccc(OCCCCCC(=O)OC(=O)O)c1)C(=O)c1ccc(-c2cc3ccccc3n2S(=O)(=O)c2ccccc2)cc1		HEK 293	>20 µM
Nc1nc(Cc2ccc3c(c2)OCO3)cc(C2CCN(C(=O)c3ccc4c(c3)OCO4)CC2)n1		Jurkat cells (PMA-stimulated)	0.7 µM
COc1ccc(C=C2C(=O)C=CC2=O)cc1	XTT	HeLa S3	>10 µM
CCOC(=O)[C@@]1(C)CC[C@]2(C)CC[C@]3(C)C(=CC(=O)[C@@H]4[C@@]5(C)CC/C(=N\OCc6cc(C)cc(C)c6)C(C)(C)[C@@H]5CC[C@]43C)[C@@H]2C1	MTT	CT26	33.42 µM
Cc1nc(Cl)c([N+](=O)[O-])c(N2CC[N+]3(CC2)CC[N+]2(CCN(c4nc(C)nc(Cl)c4[N+](=O)[O-])CC2)CC3)n1		GMK	>720 µg/mL
OC[C@H]1O[C@@H](n2ccc3c(-c4ccco4)nc(F)nc32)C(O)C1O	MTT	BJ fibroblasts	30.59 µM
COc1ccc(Cc2cc(C3CCN(C(=O)c4ccc5c(c4)OCO5)CC3)nc(=O)[nH]2)cc1		Jurkat cells (PMA-stimulated)	>5 µM
COc1ccc(/C=C/C=C2C(=O)C=CC2=O)cc1	XTT	HeLa S3	>10 µM
CC(C)N(Cc1cccc(OCCCCCC(=O)OC(=O)O)c1)C(=O)c1ccc(-c2ccc3c(c2)OCCO3)cc1		KEP293	>20 µM
S=c1[nH]c2c(c(=S)[nH]1)C1=C(CCC/C1=C\c1ccncc1)C(c1ccncc1)S2	MTT	CNE-2	15.1 µM
CSc1nc(Cl)c(C=O)c(N2CC[N+]3(CC2)CC[N+]2(CCN(c4nc(SC)nc(Cl)c4C=O)CC2)CC3)n1		K562	>55.2 µg/mL
CC(C)N(Cc1cccc(OCCCCCC(=O)OC(=O)O)c1)C(=O)c1ccc(-c2ccc3[nH]ccc3c2)cc1		HEK 293	>20 µM
CCOC(=O)[C@@]1(C)CC[C@]2(C)CC[C@]3(C)C(=CC(=O)[C@@H]4[C@@]5(C)CC/C(=N\OCc6cccc(C)c6)C(C)(C)[C@@H]5CC[C@]43C)[C@@H]2C1	MTT	CT26	22.45 µM
CCOC(=O)c1[nH]c2c(c1N)C1=C(CCC/C1=C\c1ccncc1)C(c1ccncc1)S2	MTT	KB	>50 µM
Nc1nc(Cc2ccc(Cl)cc2)cc(C2CCN(C(=O)c3ccc4c(c3)OCO4)CC2)n1		Jurkat cells (PMA-stimulated)	1.3 µM
Cc1nc(N)nc2c1ccn2[C@@H]1O[C@H](CO)C(O)C1O	MTT	CCRF-CEM leukemia cells	26.5 µM
CCOC(=O)[C@@]1(C)CC[C@]2(C)CC[C@]3(C)C(=CC(=O)[C@@H]4[C@@]5(C)CC/C(=N\OCc6ccc(C#N)cc6)C(C)(C)[C@@H]5CC[C@]43C)[C@@H]2C1	MTT	CT26	>100 µM
OC[C@H]1O[C@@H](n2ccc3c(-c4cc5ccccc5o4)nc(Cl)nc32)C(O)C1O	MTT	BJ fibroblasts	101.2 µM
CCOC(=O)CNC1=C(C#N)C2=C(CCC/C2=C\c2ccncc2)C(c2ccncc2)S1	MTT	CNE-2	>50 µM
[O-][n+]1onc2c(N3CC[N+]4(CC3)CC[N+]3(CCN(c5ncnc6no[n+]([O-])c56)CC3)CC4)ncnc21		K562	>351.2 µg/mL
CCOC(=O)[C@@]1(C)CC[C@]2(C)CC[C@]3(C)C(=CC(=O)[C@@H]4[C@@]5(C)CC/C(=N\OCc6ccsc6)C(C)(C)[C@@H]5CC[C@]43C)[C@@H]2C1	MTT	CT26	24.51 µM
Cc1nnc(-c2cccc(-c3ccc(C(=O)N(Cc4cccc(OCCCCCC(=O)OC(=O)O)c4)C(C)C)cc3)c2)o1		BJ	>20 µM
Cc1nc(N2CC[N+]3(CC2)CC[N+]2(CCNCC2)CC3)c([N+](=O)[O-])c(N2CC[N+]3(CC2)CC[N+]2(CCNCC2)CC3)n1		K562	>228.7 µg/mL
Cc1ccc(/C=C2/Cn3c(nc4c(c3=S)C3=C(CCC/C3=C\c3ccncc3)C(c3ccncc3)S4)SC2=O)cc1	MTT	CNE-2	20.2 µM
Cc1ccc(C=C2C(=O)C=CC2=O)cc1	XTT	HeLa S3	>10 µM
O=[N+]([O-])c1c(N2CC[N+]3(CC2)CC[N+]2(CCNCC2)CC3)ncnc1N1CC[N+]2(CC1)CC[N+]1(CCN(c3ncnc(N4CC[N+]5(CC4)CC[N+]4(CCNCC4)CC5)c3[N+](=O)[O-])CC1)CC2		K562	>146.1 µg/mL
Nc1nc(Cc2ccc(Br)cc2)cc(C2CCN(C(=O)c3ccc4c(c3)OCO4)CC2)n1		Jurkat cells (PMA-stimulated)	0.7 µM
O=C1C=CC(=O)C1=Cc1ccccc1	XTT	HeLa S3	>10 µM
Nc1nc(Cc2ccc(OCc3ccccc3)cc2)cc(C2CCN(C(=O)c3ccc4c(c3)OCO4)CC2)n1		Jurkat cells (PMA-stimulated)	1.2 µM
O=C1C=CC(=O)C1=Cc1ccco1	XTT	HeLa S3	5.4 µM
OC[C@H]1O[C@@H](n2ccc3c(-c4cccs4)nc(F)nc32)C(O)C1O	MTT	CEM-DNR leukemia cells	>50 µM
C1CN(CC2CO2)CC[N+]2(C1)CC[N+]1(CCCN(CC3CO3)CC1)CC2		GMK	826.9 µg/mL
OC[C@H]1O[C@@H](n2ccc3c(-c4cccc5c4oc4ccccc45)nc(Cl)nc32)C(O)C1O	MTT	MRC-5 fibroblast	130.6 µM
O=C(CCBr)N1CC[N+]2(CC1)CC[N+]1(CCN(C(=O)CCBr)CC1)CC2		L929	>353.2 µg/mL
O=C1C=CC(=O)C1=Cc1cccs1	XTT	HeLa S3	>10 µM

A second listing of 5 rows from above:

| SMILES | read by | cells | value |
|---|---|---|---|
| CCOC(=O)CNC1=C(C#N)C2=C(CCC/C2=C\c2ccncc2)C(c2ccncc2)S1 | MTT | CNE-2 | >50 µM |
| CCOC(=O)[C@@]1(C)CC[C@]2(C)CC[C@]3(C)C(=CC(=O)[C@@H]4[C@@]5(C)CC/C(=N\OCc6ccsc6)C(C)(C)[C@@H]5CC[C@]43C)[C@@H]2C1 | MTT | CT26 | 24.51 µM |
| OC[C@H]1O[C@@H](n2ccc3c(-c4ccco4)nc(F)nc32)C(O)C1O | MTT | BJ fibroblasts | 30.59 µM |
| Cc1nnc(-c2cccc(-c3ccc(C(=O)N(Cc4cccc(OCCCCCC(=O)OC(=O)O)c4)C(C)C)cc3)c2)o1 |  | BJ | >20 µM |
| Cc1nc(N)nc2c1ccn2[C@@H]1O[C@H](CO)C(O)C1O | MTT | CCRF-CEM leukemia cells | 26.5 µM |